A mixed list of measured activities; the numbers were collected in NIAID ChemDB.

Common to all: tests in culture; species: Candida tropicalis; measure: MIC

An empty or dashed field is not shown. Lines come from different laboratories, so protocols vary.

| compound | strain or isolate | method | setting | value |
|---|---|---|---|---|
| O=c1cc(-c2ccccc2)oc2cc(O)c(O)c(O)c12 | 170.06 | - | - | 2.6 µg/mL |
| CCC(C)CC(C)CCCCCCCCC(=O)N[C@H]1C[C@@H](O)[C@H](NCCN)NC(=O)[C@@H]2[C@@H](O)CCN2C(=O)[C@H]([C@H](O)CCN)NC(=O)[C@H]([C@H](O)[C@@H](O)c2ccc(O)cc2)NC(=O)[C@@H]2C[C@@H](O)CN2C(=O)[C@H]([C@@H](C)O)NC1=O | 1507 | broth dilution | - | 0.25 µg/mL |
| C/C=C/C(=O)Oc1cccc2cccnc12 | - | - | - | 50 µg/mL |
| COC(=O)c1cc(O)c(O)c(O)c1 | ATCC 750 | broth dilution | - | 50 µg/mL |
| C=CCSS(=O)CC=C | - | broth dilution | - | 640 µg/mL |
| c1ccc(COc2cccc3cccnc23)cc1 | - | - | - | 75 µg/mL |
| CC1(C)C=C2C3CCC4[C@@]5(C)CCC(=O)C(C)(C)C5CC[C@@]4(C)[C@]3(C)CC[C@@]2(C(=O)O)CC1 | ATCC 750 | broth dilution | - | >200 µg/mL |
| C=CCc1ccc(O)c(-c2cc(CC=C)ccc2O)c1 | - | broth dilution | - | 160 µg/mL |
| C/C=C/c1ccc(O)c(OC)c1 | - | broth dilution | - | 550 µg/mL |
| C[C@H]1[C@H](O)[C@@H](C)/C=C/C=C/C=C/C=C/C=C/C=C/C=C/[C@H](O[C@@H]2O[C@H](C)[C@@H](O)[C@H](N)[C@@H]2O)C[C@@H]2O[C@](O)(C[C@@H](O)C[C@@H](O)CC[C@H](O)[C@@H](O)C[C@@H](O)CC(=O)O[C@H]1C)C[C@H](O)[C@H]2C(=O)O | CBS 94 | broth dilution | - | 0.01 µg/mL |
| COc1cc(C=O)ccc1O | - | broth dilution | - | 130 µg/mL |
| C[C@@H]1C=C2C3CCC4[C@@]5(C)CC[C@@H](O)C(C)(C)C5CC[C@@]4(C)[C@]3(C)CC[C@@]2(C(=O)O)CC1 | ATCC 750 | broth dilution | - | >200 µg/mL |
| COC(=O)[C@H]1[C@@H]2C[C@@H](O[C@@H]3O[C@H](C)[C@@H](O)[C@H](N)[C@@H]3O)/C=C/C=C/C=C/C=C/C=C/C=C/C=C/[C@H](C)[C@@H](O)[C@H](C)[C@H](C)OC(=O)C[C@H](O)C[C@H](O)[C@@H](O)CC[C@H](O)C[C@H](O)C[C@](O)(C[C@@H]1O)O2 | Clinical isolates | - | - | 2 µg/mL |
| Oc1c(Cl)cc(Cl)c2cccnc12 | ATCC 750 | - | 24 h | 3.1 µg/mL |
| COc1cc(O)c2c(c1)C(=O)c1c(cc3c(c1O)-c1c(cc(C)c(C(=O)NC(CO)C(=O)O)c1O)[C@H](OC1OC(C)C(O)C(OC4OCC(O)C(O)C4O)C1O)C3O)C2=O | IFO 10241 | - | - | 12.4 µg/mL |
| C[C@@H]1O[C@@H](OC[C@H]2O[C@@H](Oc3c(-c4ccc(O)cc4)oc4cc(O)cc(O)c4c3=O)[C@H](O)[C@@H](O)[C@@H]2O)[C@H](O)[C@H](O)[C@H]1O | - | - | - | 640 µg/mL |
| Oc1ccc(Cl)c2cccnc12 | ATCC 750 | - | 48 h | 6.2 µg/mL |
| c1ccc(-c2ccc(C(c3ccccc3)n3ccnc3)cc2)cc1 | 27 strains | - | - | 8.93 µg/mL |
| O=C(/C=C/c1ccccc1)Oc1cccc2cccnc12 | - | - | - | >100 µg/mL |
| C[C@@H]1[C@H](O)[C@@H](C)/C=C/C=C/CC/C=C/C=C/C=C/C=C/C(O[C@H]2O[C@H](C)[C@@H](O)[C@H](N)[C@@H]2O)CC2O[C@](O)(CC(O)C(O)CCC(O)CC(O)CC(O)CC(=O)O[C@H]1C)CC(O)C2C(=O)O | Clinical isolates | broth dilution | - | 2 µg/mL |
| CCOc1cccc2ccc[n+](CC)c12.[I-] | - | - | - | >100 µg/mL |
| COc1cc(C)ccc1O | - | broth dilution | - | 2240 µg/mL |
| CC[C@@H]([C@H](C)O)n1ncn(-c2ccc(N3CCN(c4ccc(OC[C@@H]5CO[C@@](Cn6cncn6)(c6ccc(F)cc6F)C5)cc4)CC3)cc2)c1=O | Clinical isolates | broth dilution | - | 0.06 µg/mL |
| C=CCc1ccc(OC)c(OC)c1 | - | broth dilution | - | 1280 µg/mL |
| Clc1ccc(COC(Cn2ccnc2)c2ccc(Cl)cc2Cl)c(Cl)c1 | Clinical isolates | broth dilution | - | 0.06 µg/mL |
| Cc1ccc(O)cc1 | - | broth dilution | - | 880 µg/mL |
| COc1cc(O)c2c(=O)c(OC)c(-c3ccc(OC4O[C@H](CO)[C@@H](O)[C@H](O)[C@H]4O)cc3)oc2c1 | - | - | - | 320 µg/mL |
| C/C=C/Cc1ccc(OC)cc1 | - | broth dilution | - | 1150 µg/mL |
| Oc1c(Cl)ccc2cccnc12 | ATCC 750 | - | 48 h | 6.2 µg/mL |

The last 2 rows once more:

{"compound": "C/C=C/Cc1ccc(OC)cc1", "method": "broth dilution", "value": "1150 µg/mL"}
{"compound": "Oc1c(Cl)ccc2cccnc12", "strain or isolate": "ATCC 750", "setting": "48 h", "value": "6.2 µg/mL"}